Here are results for 2 compounds from US11820973B2, “Methods and system for interfering with viability of bacteria and related compounds and compositions” (CALIFORNIA INSTITUTE OF TECHNOLOGY, priority 2011, dated 2023).

Test [1] relates to P. aeruginosa PA14 siderophore null strain (ΔpvdAΔpchE). In words: Flow cell biofilm development, siderophore null strain, 1% TSB. The note with it: 1.0 μM Fe(OH)3(s); for Avg. thickness of biomass: ΔpvdAΔpchE, calculated for the area covered by biomass, 10 μM PCA or PYO.
Test [2] concerns P. aeruginosa PA14 wild type and feoB::MAR2xT7 mutant. In words: Planktonic growth in 1% TSB-based biofilm medium. As to conditions: amounts used in the biofilm experiments, batch cultures, 37° C.
The subject of test [3] is P. aeruginosa PA14 feoB::MAR2xT7 mutant. Put plainly: Flow cell biofilm development, feoB::MAR2xT7 mutant, 1% TSB with conalbumin. The note with it: PCA added to conalbumin-treated medium.

On to `Cn1c2cccc(=O)c-2nc2ccccc21` [PYO, Pyocyanin], for which the “Rescue of biofilm formation by the ΔpvdAΔpchE mutant” value in test [1] (10 μM PCA or PYO added to 1% TSB) is recorded as “rescued the biofilm defect regardless of whether Fe(OH)3(s) was present”. In addition, the “Avg. thickness of biomass” value in test [1] (Day 2) is on record as 13.5 ± 0.4 μm; in test [1] (Day 4), 10.1 ± 0.4 μm; in test [1] (Day 6), 21.4 ± 2.1 μm. In addition, the “Effect on planktonic growth” value in test [2] is on record as “does not inhibit planktonic growth”.
`O=C(O)c1cccc2nc3ccccc3nc12` [PCA, Phenazine-1-carboxylic acid]: the “Rescue of the conalbumin-induced biofilm defect” value in test [3] is reported as “failed to rescue the conalbumin-induced biofilm defect”. In addition, the entries for the “Avg. thickness of biomass” value in test [1] (Day 2), in test [1] (Day 4) and in test [1] (Day 6) were 12.6 ± 1.4 μm, 10.8 ± 0.9 μm and 15.1 ± 4.4 μm, respectively. In test [2], the “Effect on planktonic growth” value is recorded as “had no effect on the growth of either strain”.
